Data published in patent publication US5364931A (Bayer Aktiengesellschaft, priority 1990, dated 1994).
Read-outs that look alike come from different tables or passages of the source.

Sequences of proteins named here, by UniProt entry; tags and fusion partners are left off. Residues count along the entry.
UniProt P04584, 514-612 limits assumed: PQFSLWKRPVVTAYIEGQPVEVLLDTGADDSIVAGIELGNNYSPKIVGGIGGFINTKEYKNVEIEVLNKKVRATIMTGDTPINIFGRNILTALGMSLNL

Key:
HIV-1 protease = HIV-1 protease (Human immunodeficiency virus type 1 group M subtype B, UniProt P04585); assay: HIV-specific protease enzyme test (RP-HPLC), HIV-1; type: biochemical; details: read-out: IC50 (RP-HPLC) HIV-1, compounds of general formula (VIa)
Description: (§1) The results for the examples listed below were determined by the HIV test system described in the following literature reports [cf. Hansen, J., Billich, S., Schulze, T. Sukrow, S. and Molling, K. (1988), EMBO Journal, Vol. 7, No. 6, pages 1785-1791]: purified HIV protease was incubated with synthetic peptide which imitates a cleavage site in the Gag precursor protein and represents an in vivo cleavage site of the HIV protease. The resulting cleavage products of the synthetic peptide were analysed by means of reverse phase high performance liquid chromatography (RP-HPLC). The IC50 values given relate to the substance concentration which causes a 50% inhibition of protease activity under the abovementioned test conditions.

HIV-2 protease = HIV-2 protease (Human immunodeficiency virus type 2 subtype A, UniProt P04584); assay: HIV-specific protease enzyme test (RP-HPLC), HIV-2; details: read-out: IC50 (RP-HPLC) HIV-2, compounds of general formula (VIa)
Description: as §1

HIV = HIV infection in cell culture (syncytia formation in infected PBLs); type: cell-based; details: read-out: IC50 (50% suppression of virus-induced syncytia); HIV-infected normal human blood lymphocytes (PBLs), evaluated day 3 to 6 after infection
Description: The HIV test was carried out with slight modifications by the method of Pauwels et al. (Journal of Virological Methods 20 (1988) 309-321).
Normal human blood lymphocytes (PBLs) were concentrated by means of Ficoll-Hypaque and stimulated with phytohaemagglutinin (90 μg/ml) and interleukin 2 (40 U/ml) in RPMI 1640 and 20% foetal calf serum. For infection with the infectious HIV, PBLs were pelleted and the cell pellet was then suspended in 1 ml of HIV virus adsorption solution and incubated at 37° C. for 1 hour.
The virus adsorption solution was centrifuged and the infected cell pellet was taken up in growth medium such that a concentration of 1×10^5 cells per ml was established. The cells infected in this way were pipetted into the wells of 96-well microtitre plates at a concentration of 1×10^4 cells/well.
The first vertical row of the microtitre plate contained only growth medium and cells which had not been infected, but otherwise treated exactly as described above (cell control). The second vertical row of the microtitre plate contained only HIV-infected cells (virus control) in growth medium. The other wells contained the compounds according to the invention at different concentrations, starting from the wells of the 3rd vertical row of the microtitre plate, from which the test compounds were diluted 10 times in two-fold steps.
The test batches were incubated at 37° C. until, in the untreated virus control, the syncytia formation typical for HIV occurred (between day 3 and 6 after infection), which was then evaluated microscopically.
The IC50 values were determined as the concentration of the treated and infected cells at which 50% (about 10 syncytia) of the virus-induced syncytia were suppressed by treatment with the compound according to the invention.

HIV protease = HIV protease (Human immunodeficiency virus type 1 group M subtype B, UniProt P04585); assay: HIV-specific protease enzyme test (RP-HPLC), compounds of formula (I)
Description: as §1

[1] = read-out: IC50 (RP-HPLC), purified HIV protease, synthetic Gag cleavage-site peptide, compounds of general formula (I)
[2] = read-out: IC50 (RP-HPLC), purified HIV protease, synthetic Gag cleavage-site peptide, compounds of general formula (I), tested form: 2HCl

SMILES | IC50 (HIV-1 protease) [nM] | IC50 (HIV protease; [1]) [nM] | other results
CC(C)[C@H](NC(=O)[C@H](CC1CCCCC1)NC(=O)OC(C)(C)C)C(=O)N[C@@H](CC1CCCCC1)C1CS1 (stereo partly drawn) | 100 | – | –
CC(C)[C@H](NC(=O)[C@H](Cc1ccccc1)NC(=O)CC(C)(C)C)C(=O)N[C@@H](CC1CCCCC1)C1CO1 (stereo partly drawn) | 10 | – | IC50 (HIV-2 protease): 1000 nM
CC(C)[C@H](NC(=O)[C@H](Cc1cccc2ccccc12)CS(=O)(=O)C(C)(C)C)C(=O)N[C@@H](Cc1ccccc1)C1CO1 (stereo partly drawn) | 1 | – | –
CC(C)[C@H](NC(=O)[C@H](CC1CCCCC1)NC(=O)OC(C)(C)C)C(=O)N[C@@H](Cc1ccccc1)C1CO1 (stereo partly drawn) | 1 | – | IC50 (HIV): 10000 nM
CCOP(=O)(OCC)C1CCCN1C[C@H](O)[C@H](Cc1ccccc1)NC(=O)[C@@H](NC(=O)[C@H](Cc1cccc2ccccc12)CS(=O)(=O)C(C)(C)C)C(C)C (single isomer, unassigned) [29 (polar)] | – | 1 | IC50 (HIV): 4700 nM
CCOP(=O)(OCC)C1CCCN1C[C@H](O)[C@H](Cc1ccccc1)NC(=O)[C@@H](NC(=O)c1ccc2ccccc2n1)C(C)C (stereo partly drawn) | – | 500 | –
CCOP(=O)(OCC)C1CCCN1C[C@H](O)[C@H](Cc1ccccc1)NC(=O)[C@@H](NC(=O)[C@@H](N)Cc1ccccc1)C(C)C (single isomer, unassigned) [11] | – | – | IC50 (HIV protease; [2]): 500 nM
CC(C)[C@H](NC(=O)[C@H](Cc1cccc2ccccc12)CS(=O)(=O)C(C)(C)C)C(=O)N[C@@H](CC1CCCCC1)C1CO1 (stereo partly drawn) | 1 | – | –
CCOP(=O)(OCC)C1CCCN1C[C@H](O)[C@H](CC1CCCCC1)NC(=O)[C@H](CC(N)=O)NC(=O)[C@H](Cc1ccccc1)NC(=O)[C@H](CO)NC(=O)OC(C)(C)C (stereo partly drawn) | – | 1000 | –
CCOP(=O)(OCC)C1CCCN1C[C@H](O)[C@H](Cc1ccccc1)NC(=O)[C@@H](NC(=O)[C@H](CC1CCCCC1)NC(=O)OC(C)(C)C)C(C)C (stereo partly drawn) | – | 100 | –
CCOP(=O)(OCC)C1CCCN1C[C@H](O)[C@H](Cc1ccccc1)NC(=O)[C@@H](NC(=O)[C@H](Cc1ccccc1)NC(=O)[C@H](CO)NC(=O)OC(C)(C)C)C(C)C (stereo partly drawn) | – | 100 | –
CC(C)[C@H](NC(=O)[C@H](Cc1ccccc1)NC(=O)OCc1ccccc1)C(=O)N[C@@H](CC1CCCCC1)C1CO1 (single isomer, unassigned) [66] | 100 | – | –
CC(C)[C@H](NC(=O)[C@H](Cc1ccccc1)NC(=O)OCc1ccccc1)C(=O)N[C@@H](CC1CCCCC1)C1CO1 (single isomer, unassigned) [65] | 1000 | – | –
CC(C)[C@H](NC(=O)[C@H](Cc1ccccc1)NS(C)(=O)=O)C(=O)N[C@@H](CC1CCCCC1)C1CO1 (stereo partly drawn) | 10 | – | –
CC(C)[C@H](NC(=O)[C@H](Cc1ccccc1)CS(=O)(=O)C(C)(C)C)C(=O)N[C@@H](Cc1ccccc1)C1CO1 (stereo partly drawn) | 10 | – | IC50 (HIV-2 protease): 1 nM
CCOP(=O)(OCC)C1CCCN1C[C@H](O)[C@H](Cc1ccccc1)NC(=O)[C@@H](NC(=O)c1cc2ccccc2[nH]1)C(C)C (stereo partly drawn) | – | 500 | –
CC(C)[C@H](NC(=O)[C@H](Cc1ccccc1)NC(=O)OCc1ccccc1)C(=O)N[C@@H](Cc1ccccc1)C1CO1 (stereo partly drawn) | 0.1 | – | –
CC(C)[C@H](NC(=O)c1ccc2ccccc2n1)C(=O)N[C@@H](Cc1ccccc1)C1CO1 (single isomer, unassigned) [56] | 10 | – | –
CCOP(=O)(OCC)C1CCCN1C[C@H](O)[C@H](Cc1ccccc1)NC(=O)[C@@H](NC(=O)[C@H](Cc1ccccc1)NC(=O)OC(C)(C)C)C(C)C (single isomer, unassigned) [17] | – | 10 | –
CC(C)[C@H](NC(=O)[C@H](Cc1ccccc1)NC(=O)OC(C)(C)C)C(=O)N[C@@H](Cc1ccccc1)C1CO1 (stereo partly drawn) | 10 | – | –
CCOP(=O)(OCC)C1CCCN1C[C@H](O)[C@H](CC1CCCCC1)NC(=O)[C@@H](NC(=O)[C@H](Cc1cccc2ccccc12)CS(=O)(=O)C(C)(C)C)C(C)C (single isomer, unassigned) | – | < 10 | IC50 (HIV): 9500 nM
CCOP(=O)(OCC)C1CCCN1C[C@H](O)[C@H](Cc1ccccc1)NC(=O)[C@@H](NC(=O)[C@@H](N)Cc1ccccc1)C(C)C (single isomer, unassigned) [10] | – | – | IC50 (HIV protease; [2]): 50 nM
CC(C)[C@H](NC(=O)[C@H](Cc1ccccc1)CS(=O)(=O)C(C)(C)C)C(=O)N[C@@H](CC1CCCCC1)C1CO1 (stereo partly drawn) | 10 | – | IC50 (HIV-2 protease): 1 nM
CC(C)[C@H](NC(=O)[C@H](Cc1ccccc1)NS(C)(=O)=O)C(=O)N[C@@H](Cc1ccccc1)C1CO1 (stereo partly drawn) | 10 | – | IC50 (HIV-2 protease): 10 nM
CCOP(=O)(OCC)C1CCCN1C[C@H](O)[C@H](Cc1ccccc1)NC(=O)[C@@H](NC(=O)[C@H](Cc1ccccc1)NC(=O)OC(C)(C)C)C(C)C (single isomer, unassigned) [18] | – | 1 | –
CCOP(=O)(OCC)C1CCCN1C[C@H](O)[C@H](Cc1ccccc1)NC(=O)[C@@H](NC(=O)[C@H](Cc1cccc2ccccc12)CS(=O)(=O)C(C)(C)C)C(C)C (single isomer, unassigned) [28 (non-polar)] | – | 1000 | –
